Results of unrelated studies side by side (data: NIAID ChemDB).

Common to all: growth or infection tests; organism: HIV-1; method: p24; read-out: EC50

ECn is the concentration giving n% inhibition of infection, replication or growth. Neighbouring rows are from separate reports. An empty or dashed field is not shown.

{"compound": "COc1ccccc1-c1noc(=O)n1-c1cccc(C(F)(F)F)c1", "strain": "NLHXADA R5 recombinant wild type", "cells": "MDM", "value": "<1 µM"}
{"compound": "O=c1[nH]cnc2c1ncn2[C@H]1CC[C@@H](CO)O1", "strain": "RF", "cells": "H9", "value": "9.1 µM"}
{"compound": "Nc1ccn([C@H]2CO[C@@H](CO)S2)c(=O)n1", "strain": "HXB2D", "cells": "PBMC", "value": "0.3 µM"}
{"compound": "Cc1cn([C@H]2C[C@H](N=[N+]=[N-])[C@@H](CO)O2)c(=O)[nH]c1=O", "strain": "NL4-3", "cells": "PBMC", "value": "0.013 µM"}
{"compound": "CC(C)[C@H](NC(=O)N(C)Cc1ccccn1)C(=O)N[C@@H](Cc1ccccc1)[C@H](O)[C@H](O)[C@H](Cc1ccccc1)NC(=O)[C@@H](NC(=O)N(C)Cc1ccccn1)C(C)C", "strain": "NL4-3", "cells": "MT-4", "value": "0.2 µM"}
{"compound": "O=C1O[C@H]2[C@@H]3OC(=O)c4cc(O)c(O)c(O)c4-c4c(cc(O)c(O)c4O)C(=O)OC[C@H]2O[C@@H](OC(=O)c2cc(O)c(O)c(O)c2)[C@@H]3OC(=O)c2cc(O)c(O)c3c2[C@@H]2C1=CC(=O)[C@](O)(O3)C2(O)O", "strain": "HX10", "cells": "MT-4", "value": "0.48 µM"}
{"compound": "Cc1cn([C@@H]2O[C@H](CO)[C@@H](N=[N+]=[N-])[C@@H]2F)c(=O)[nH]c1=O", "cells": "CEM", "value": ">100 µM"}
{"compound": "CC(C)[C@H](NC(=O)N(C)Cc1ccccn1)C(=O)N[C@@H](Cc1ccccc1)[C@@H](O)[C@H](O)[C@H](Cc1ccccc1)NC(=O)[C@@H](NC(=O)N(C)Cc1ccccn1)C(C)C", "strain": "D34", "cells": "PBLC", "value": "0.958 µM"}
{"compound": "Cc1cn([C@H]2C[C@H](N=[N+]=[N-])[C@@H](CO)O2)c(=O)[nH]c1=O", "strain": "NL4-3", "changes": "RT-V75T", "cells": "MT-2", "value": "0.006 µM"}
{"compound": "CC(C)(C)NC(=O)[C@@H]1CCCCN1C[C@@H](O)[C@H](Cc1ccccc1)NC(=O)[C@H](CC(N)=O)NC(=O)c1ccc2ccccc2n1", "strain": "RF", "cells": "C8166", "value": "0.017 µM"}
{"compound": "O=c1[nH]cnc2c1ncn2[C@H]1CC[C@@H](CO)O1", "strain": "8681 CLADE D CLADE D", "cells": "PBMC", "value": "6.85 µM"}
{"compound": "CC(C)[C@H](NC(=O)OCc1ccccc1)C(=O)N[C@@H](Cc1ccccc1)[C@@H](O)[C@H](O)[C@H](Cc1ccccc1)NC(=O)[C@@H](NC(=O)OCc1ccccc1)C(C)C", "strain": "D34", "cells": "PBLC", "value": "0.1 µM"}
{"compound": "COC(=O)N[C@H](C(=O)N[C@@H](Cc1ccccc1)[C@@H](O)CN(Cc1ccc(-c2ccccn2)cc1)NC(=O)[C@@H](NC(=O)OC)C(C)(C)C)C(C)(C)C", "strain": "006", "cells": "PBMC", "value": "0.00262 µM"}
{"compound": "CC(C)(C)C(=O)c1sc(C(=O)NCc2ccccc2)c(O)c1O", "strain": "GE98002 X4", "cells": "PBMC", "value": "0.2 µM"}
{"compound": "COc1c(C)c2c(c(O)c1C/C=C(\\C)CCC(=O)O)C(=O)OC2", "strain": "IIIB", "cells": "PBMC", "value": "0.11 µM"}
{"compound": "CO[C@H]1/C=C/O[C@@]2(C)Oc3c(C)c(O)c4c(c3C2=O)C(=O)C(SCCOC(=O)CCCC(=O)OC[C@@H]2O[C@H](n3cc(C)c(=O)[nH]c3=O)C[C@H]2N=[N+]=[N-])=C(NC(=O)/C(C)=C\\C=C\\[C@H](C)[C@@H]2OC(C)(C)O[C@@H]([C@@H](C)[C@H](OC(C)=O)[C@@H]1C)[C@@H]2C)C4=O", "strain": "IIIB", "cells": "C8166", "value": "0.04 µM"}
{"compound": "COc1cc(C(=O)N[C@H]2CCc3cc(OC)c(OC)c(OC)c3-c3ccc(OC)c(=O)cc32)cc(OC)c1OC", "strain": "IIIB", "cells": "H9", "value": "0.02 µM"}
{"compound": "Nc1nc(NC2CC2)c2ncn([C@H]3C=C[C@@H](CO)C3)c2n1", "strain": "Clinical isolate", "changes": "PR-L10L/I K20R M36I I54V A71I/V V82A I84I/V L90M", "cells": "PBMC", "value": "0.91 µM"}
{"compound": "Cc1cn([C@H]2C=C[C@@H](CO)O2)c(=O)[nH]c1=O", "strain": "RF", "cells": "H9", "value": "0.8 µM"}
{"compound": "Cc1c2cc(O)c(O)cc2cc[n+]1C", "strain": "IIIB", "cells": "H9", "value": ">2.15 µg/mL"}
{"compound": "CCN1c2ncccc2-c2ncc(C)n2-c2ccc(OC)nc21", "conditions": "7 d", "strain": "IIIB", "cells": "H9", "value": "<0.0023 µM"}
{"compound": "CO[C@H]1/C=C/O[C@@]2(C)Oc3c(C)c(O)c4c(c3C2=O)C(=O)C(SCCOC(=O)CCC(=O)OC[C@H]2O[C@@H](n3cc(C)c(=O)[nH]c3=O)CC2O)=C(NC(=O)/C(C)=C\\C=C\\[C@H](C)[C@H](O)[C@@H](C)[C@@H](O)[C@@H](C)[C@H](OC(C)=O)[C@@H]1C)C4=O", "strain": "IIIB", "cells": "C8166", "value": ">20 µM"}
{"compound": "CSC[C@H](NC(=O)COc1cccc2cnccc12)C(=O)N[C@@H](Cc1ccccc1)[C@H](O)C(=O)N1CSC(C)(C)[C@H]1C(=O)NC(C)(C)C", "strain": "AZT-sens", "cells": "PBMC(PHA STIM.) + PBMC", "value": "0.01 µM"}
{"compound": "Cc1c(O)cccc1C(=O)N[C@@H](CSc1ccccc1)[C@H](O)CN1C[C@H]2CCCC[C@H]2C[C@H]1C(=O)NC(C)(C)C", "strain": "MOKW", "cells": "PBMC", "value": "0.014 µM"}
{"compound": "COc1cc2c(c(OC)c1OC)-c1ccc(OC)c(=O)cc1[C@@H](NC(C)=O)CC2", "strain": "IIIB", "cells": "H9", "value": "0.01 µM"}
{"compound": "Cc1cn([C@H]2C[C@H](N=[N+]=[N-])[C@@H](CO)O2)c(=O)[nH]c1=O", "strain": "IIIB", "cells": "H9", "value": "0.04 µg/mL"}
{"compound": "c1cc(CN2CCCNCCNCCCNCC2)ccc1CN1CCCNCCNCCCNCC1", "strain": "PCP1 CLADE C R5 CXCR6", "cells": "PBMC", "value": ">0.5 µM"}
{"compound": "Cc1cn([C@H]2C=C[C@@H](CO)O2)c(=O)[nH]c1=O", "strain": "ERS104pre", "cells": "PBMC", "value": "11 µM"}
{"compound": "COc1cc2c(c(OC)c1O)-c1ccc(SC)c(=O)cc1[C@@H](N)CC2", "strain": "IIIB", "cells": "H9", "value": "1.1 µM"}
{"compound": "Fc1cccc(F)c1C1SCc2nc3ccccc3n21", "strain": "BaL", "cells": "Macrophage", "value": "0.69 µM"}
{"compound": "O=c1[nH]cnc2c1ncn2[C@H]1CC[C@@H](CO)O1", "strain": "IIIB 3TC (RT-M184V)", "changes": "RT-M184V", "cells": "MT-4", "value": "76 µM"}
{"compound": "Cc1cn([C@H]2C[C@H](N=[N+]=[N-])[C@@H](CO)O2)c(=O)[nH]c1=O", "strain": "IIIB", "cells": "MT-4", "value": "0.0097 µM"}
{"compound": "COC(=O)[C@H](C)NP(=O)(OC[C@@H]1C=C[C@H](n2cc(C)c(=O)[nH]c2=O)O1)Oc1ccc(Br)cc1", "strain": "IIIB Subtype B", "cells": "PBMC", "value": "0.0008 µM"}
{"compound": "O=c1[nH]cnc2c1ncn2[C@H]1CC[C@@H](CO)O1", "strain": "JSL", "changes": "MDR", "cells": "PBMC", "value": "2.5 µM"}
{"compound": "CCN(c1ncccc1NC(C)(C)C)C1CCN(C(=O)c2cc3cc(NS(C)(=O)=O)ccc3[nH]2)CC1", "strain": "IIIB", "changes": "RT-T139I", "value": "0.95 ± 0.07 µM"}
{"compound": "CCCCC#CCSc1ccccc1OC(C)=O", "strain": "BaL", "cells": "PBMC", "value": "23 µM"}
{"compound": "CCCCN1C(=O)C(CC2CCCCC2)NC(=O)C12CCN(Cc1cnc(-c3ccccc3)[nH]1)CC2", "strain": "BaL", "cells": "PBMC", "value": "0.24 µM"}
{"compound": "CC(C)[C@H](NC(=O)N(C)Cc1ccccn1)C(=O)N[C@@H](Cc1ccccc1)[C@H](O)[C@H](O)[C@H](Cc1ccccc1)NC(=O)[C@@H](NC(=O)N(C)Cc1ccccn1)C(C)C", "strain": "IIIB", "cells": "CEM", "value": "0.124 µM"}
{"compound": "CN[C@@H]1[C@@H](O)[C@@H](O[C@@H]2[C@@H](O)[C@H](O[C@H]3O[C@H]([C@@H](C)O)[C@@H](O)[C@H](O)[C@H]3N)[C@@H](N)C[C@H]2N)OC[C@]1(C)O", "strain": "LAI", "cells": "H9", "value": ">200 µM"}
{"compound": "c1cc(CN2CCCNCCNCCCNCC2)ccc1CN1CCCNCCNCCCNCC1", "strain": "NL4-3", "cells": "MT-4", "value": "0.003 µg/mL"}
{"compound": "Cc1ccnc2c1NC(=O)c1cccnc1N2C1CC1", "strain": "IIIB Subtype B", "cells": "PBMC", "value": "0.01 µM"}
{"compound": "O=c1cc[nH]c(=O)[nH]1", "strain": "IIIB", "cells": "MOLT4 + MOLT-4", "value": ">4000 µM"}
{"compound": "CC(C)(C)OC(=O)[C@@H]1CCCN1C[C@@H](O)[C@H](Cc1ccccc1)NC(=O)[C@H](CC(N)=O)NC(=O)c1ccc2ccccc2n1", "strain": "RF", "cells": "C8166", "value": "0.11 µM"}
{"compound": "CC1NCCc2cc(O)c(O)cc21", "strain": "IIIB", "cells": "H9", "value": "0.117 µg/mL"}
{"compound": "Cc1cn([C@H]2C[C@H](N=[N+]=[N-])[C@@H](CO)O2)c(=O)[nH]c1=O", "strain": "IIIB A17 (NNRTI-resistant RT K103N Y181C)", "cells": "PBMC", "value": "0.005 µM"}
{"compound": "CCOc1ccc(Cc2c3cc(OCC)c(OCC)cc3cc(C)[n+]2C)cc1OCC", "strain": "IIIB", "cells": "H9", "value": ">13 µg/mL"}
{"compound": "Nc1nc2nc[nH]c2c(=O)[nH]1", "strain": "IIIB", "cells": "MOLT4 + MOLT-4", "value": ">300 µM"}
{"compound": "CCN1c2ncccc2-c2nccn2-c2ccc(N(C)C)nc21", "conditions": "7 d", "strain": "IIIB", "cells": "H9", "value": "<0.041 µM"}
{"compound": "CC(C)(C)NC(=O)[C@@H]1C[C@@H]2CCCC[C@@H]2CN1C[C@@H](O)[C@H](Cc1ccccc1)NC(=O)[C@H](CC(N)=O)NC(=O)c1ccc2ccccc2n1", "strain": "006", "cells": "PBMC", "value": "0.0248 µM"}
{"compound": "CC(C)(C)NC(=O)[C@@H]1C[C@@H]2CCCC[C@@H]2CN1C[C@@H](O)[C@H](Cc1ccccc1)NC(=O)[C@H](CC(N)=O)NC(=O)c1ccc2ccccc2n1", "strain": "NL4-3.C11 (PR L10F M46I I84V T91S)", "changes": "PR-L10F M46I I84V T91S", "cells": "MT-4", "value": "0.002 µM"}
{"compound": "CO[C@H]1/C=C/O[C@@]2(C)Oc3c(C)c(O)c4c(c3C2=O)C(=O)C(SCCOC(=O)CCCC(=O)OC[C@@H]2O[C@H](n3cc(C)c(=O)[nH]c3=O)C[C@H]2N=[N+]=[N-])=C(NC(=O)/C(C)=C\\C=C\\[C@H](C)[C@H](O)[C@@H](C)[C@@H](O)[C@@H](C)[C@H](OC(C)=O)[C@@H]1C)C4=O", "strain": "IIIB", "cells": "C8166", "value": "0.07 µM"}
{"compound": "Cc1cn([C@H]2C=C[C@@H](CO)O2)c(=O)[nH]c1=O", "strain": "HxB2D(RT-D67G)", "changes": "RT-D67G", "cells": "PBMC", "value": "0.35 µM"}
{"compound": "CCCC[C@H](NC(=O)[C@@H](NC(=O)[C@H](Cc1cccc2ccccc12)CS(=O)(=O)C(C)(C)C)C(C)C)[C@@H](O)[C@H](O)[C@H](CCCC)NC(=O)[C@@H](NC(=O)[C@H](Cc1cccc2ccccc12)CS(=O)(=O)C(C)(C)C)C(C)C", "strain": "D34", "cells": "PBLC", "value": "0.075 µM"}
{"compound": "CC(=O)O[C@@H]1[C@H](OC(=O)CC(C)C)c2c(ccc3ccc(=O)oc23)OC1(C)C", "conditions": "18 d", "cells": "Monocytes", "value": "<20 µg/mL"}
{"compound": "Nc1nc(=O)n([C@@H]2CO[C@H](CO)S2)cc1F", "strain": "HXB2D", "cells": "PBMC", "value": "3 µM"}
{"compound": "Cc1c[nH]c(=O)[nH]c1=O", "strain": "IIIB", "cells": "MOLT4 + MOLT-4", "value": ">4000 µM"}
{"compound": "CCN1c2ncccc2-c2nccn2-c2cccnc21", "conditions": "7 d", "strain": "IIIB", "cells": "H9", "value": "<0.07 µM"}

5 of the rows above, restated:

compound | conditions | strain | changes | cells | value
CC(C)[C@H](NC(=O)N(C)Cc1ccccn1)C(=O)N[C@@H](Cc1ccccc1)[C@@H](O)[C@H](O)[C@H](Cc1ccccc1)NC(=O)[C@@H](NC(=O)N(C)Cc1ccccn1)C(C)C | - | D34 | - | PBLC | 0.958 µM
CC(C)(C)NC(=O)[C@@H]1C[C@@H]2CCCC[C@@H]2CN1C[C@@H](O)[C@H](Cc1ccccc1)NC(=O)[C@H](CC(N)=O)NC(=O)c1ccc2ccccc2n1 | - | 006 | - | PBMC | 0.0248 µM
CC1NCCc2cc(O)c(O)cc21 | - | IIIB | - | H9 | 0.117 µg/mL
CCCCC#CCSc1ccccc1OC(C)=O | - | BaL | - | PBMC | 23 µM
CC(C)(C)NC(=O)[C@@H]1C[C@@H]2CCCC[C@@H]2CN1C[C@@H](O)[C@H](Cc1ccccc1)NC(=O)[C@H](CC(N)=O)NC(=O)c1ccc2ccccc2n1 | - | NL4-3.C11 (PR L10F M46I I84V T91S) | PR-L10F M46I I84V T91S | MT-4 | 0.002 µM